Substitutions are numbered along the chain they refer to. Human monoclonal antibodies against the spike receptor-binding domain (heavy:light variable regions). IC50 against pseudoviruses bearing the spike of naturally observed variants; lower = stronger; >10 µg/ml means not reached at the top dose. No active / inactive call. The stated detection limit is 0.0005 µg/ml; values near or below 0.001 µg/ml lie at the floor of the assay.

The results in this text go back to the supplement of paper PMC9931576.

The labels stand for the following.
B1: XGv-261 (protein)
chain 1: QLQLQESGPGLVRPSETLSLTCTVSGGSITDSGYYWGWIRQPPGKGLEWIGNIFYSGSTYYNPSLKSRVTISVDTSKNQFSLRLSSVTAADTAVYYCAREIGIIDYWGQGSLVIVSS
chain 2: DIQMTQSPSSLSASVGDRVTITCRASQGISNSLAWYQQKPGKAPKLLLYGASTLESGVPSRFSGSGSGTHFTLTISSLQPEDFATYFCQQYYSSPPRTFGGGTKVEI
B2: XGv-305 (protein)
chain 1: QVQLVESGGGVVQPGRSLRLSCAASGFTFSTYGMHWVRQAPGKGLEWVAVIWNDGSGKLYADSVKGRFTISRDNSKNTLYLQMSSLRAEDTAVYYCARDQGELVTYFDYWGQGTLVTVSS
chain 2: DIQMTQSPSSLSASVGDRVTITCRASQSISRYLNWYQQKPGKAPKLLIYTTSNLQSGVPSRFSGSGSGTDFTLTISSLQLEDFATYYCQQSYSTPSWTFGQGTKVEI
B3: XGv-306 (protein)
chain 1: B2 chain 1 with Y32F
chain 2: DIQMTQSPSSLSASVGDRVTITCRASQSISRYLNWYQQKPGKAPKLLIYSASNLQSGVPSRFSGSGSGTDFTLTISSLQPEDFATYYCQQSYSTPSWTFGQGTKVEIK
B4: XGv-233 (protein)
chain 1: QVQLQESGPGLVKPSQTLSLTCTVSGGSINTGGFCWSWLRQLPGKGLEWLGHIYYSGDTYYNPSLNSRLRISVDTSRKQFSLKLSSVTAADTAVYYCARALTDPGWFDPWGHGTLVTVSS
chain 2: SYVLTQPPSVSVAPGKTASITCGGNNIGSKSVHWYQQKPGQAPVMVIYYDSARPSGIPERFSGSNSGDTATLTISRVEAGDEADYHCQVWDSNTDHPVFGGGTKLTV
B5: XGv-253 (protein)
chain 1: EVQLVESGGGLVQPGGSLRLSCAASGFTFSRYDMHWVRQAAGKGLEWVSGIGAPGDTYYAGSVKGRFTISRENAKTSLHLQMNNLRAGDTAVYYCTRGWFGENYMDVWGKGTTVTVSS
chain 2: EIVLTQSPATLSLSPGERATLSCRASQSVSNHLAWFQQKPGQSPRLLIYDASNRATGIPARFSGSGSGTDFTLTISSLEPEDFAIYYCHQRSNWPTFGQGTKVEIK
B6: XGv-208 (protein)
chain 1: QLQLQESGPGLVRPSETLSLTCTVSGWSISSSNYYWGWIRQPPGKGLEWIGNVHNRGSTSYNPSLKSRVTISVDTSKNQFSLRLSSVTAADTALYYCVRGLGFLDPWGQGTLVTVSS
chain 2: DIQMTQSPSSLSASVGDRVTITCRASQGIRNSLAWYQQKPGLAPQLLLYAASTLESGVPSRFSGSGSGTEFTLTISSLQPEDFATYYCQQYYSPPPYTFGQGTKLESK
B7: XGv-236 (protein)
chain 1: EVQLVESGGGLVQPGGSLRLSCAASGITFSSYWMHWVRQGPGKGLVWVSLINSDGSTTTYADSVKGRFTISRDNAKNTLHLQMNSLRAEDTAVYYCATSQWLRGGMDVWGQGTTVTVSS
chain 2: NFMLTQPHSVSESPGKTVTISCTGSSGSIASNYVQWYQQRPGSAPTIVIYEDNQRPSGVPDRFSGSIDSSSNSASLTISGLKTEDEADYYCQSYDSSTYVVFGGG

The target in the first assay is SARS-CoV-2 Omicron BA.1 spike pseudovirus. Briefly: pseudovirus neutralization IC50; higher = weaker neutralization. Here is the method:
(§1)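 Single-round VSV luciferase pseudovirus mixed with antibody dilutions for 1 h and put on Huh-7 cells for about a day; IC50 from the dose curve.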
Take B1: the “pseudovirus neutralization IC50” value came to 0.0121 µg/mL.

Take B2: the “pseudovirus neutralization IC50” value is above 10 µg/mL.

Regarding B3, the “pseudovirus neutralization IC50” value is above 10 µg/mL.

Regarding B4, the “pseudovirus neutralization IC50” value worked out at 1.19 µg/mL.

As to B5, the “pseudovirus neutralization IC50” value was above 10 µg/mL.

Consider B6, for which the “pseudovirus neutralization IC50” value is above 10 µg/mL.

Take B7: the “pseudovirus neutralization IC50” value was above 10 µg/mL.

A further assay deals with SARS-CoV-2 Omicron BA.2 spike pseudovirus. The assay is described as above. The protocol:
as §1
In the case of B1, the “pseudovirus neutralization IC50” value came to 0.0173 µg/mL.

Turning to B2, the “pseudovirus neutralization IC50” value was above 10 µg/mL.

As to B3, the “pseudovirus neutralization IC50” value is above 10 µg/mL.

Regarding B4, the “pseudovirus neutralization IC50” value was 2.12 µg/mL.

With B5, the “pseudovirus neutralization IC50” value is above 10 µg/mL.

On to B6, for which the “pseudovirus neutralization IC50” value is above 10 µg/mL.

In the case of B7, the “pseudovirus neutralization IC50” value is above 10 µg/mL.

The next assay deals with SARS-CoV-2 Omicron BA.2.75 spike pseudovirus. The assay is described as above. Here is the method:
as §1
With B1, the “pseudovirus neutralization IC50” value worked out at 0.0345 µg/mL.

Consider B2, for which the “pseudovirus neutralization IC50” value was above 10 µg/mL.

In the case of B3, the “pseudovirus neutralization IC50” value was above 10 µg/mL.

Take B4: the “pseudovirus neutralization IC50” value was found to be 1.07 µg/mL.

For B5, the “pseudovirus neutralization IC50” value worked out at 0.0316 µg/mL.

As for B6, the “pseudovirus neutralization IC50” value is above 10 µg/mL.

As to B7, the “pseudovirus neutralization IC50” value is above 10 µg/mL.

A further assay has as its target SARS-CoV-2 Omicron BA.5 spike pseudovirus. The assay is described as above. Here is the method: as §1
For the molecule B1, the “pseudovirus neutralization IC50” value is above 10 µg/mL.

As for B2, the “pseudovirus neutralization IC50” value was above 10 µg/mL.

Turning to B3, the “pseudovirus neutralization IC50” value was above 10 µg/mL.

On to B4, for which the “pseudovirus neutralization IC50” value is above 10 µg/mL.

For the molecule B6, the “pseudovirus neutralization IC50” value was above 10 µg/mL.

Take B7: the “pseudovirus neutralization IC50” value is above 10 µg/mL.

Another assay has as its target SARS-CoV-2 Omicron BQ.1.1 spike pseudovirus. Described as above. The protocol:
as §1
Turning to B1, the “pseudovirus neutralization IC50” value is above 10 µg/mL.

In the case of B2, the “pseudovirus neutralization IC50” value was above 10 µg/mL.

On to B3, for which the “pseudovirus neutralization IC50” value is above 10 µg/mL.

With B4, the “pseudovirus neutralization IC50” value is above 10 µg/mL.

On to B6, for which the “pseudovirus neutralization IC50” value is above 10 µg/mL.

For the molecule B7, the “pseudovirus neutralization IC50” value was above 10 µg/mL.

The next assay concerns the target SARS-CoV-2 Omicron XBB spike pseudovirus. The assay is described as above. Here is the method: as §1
On to B1, for which the “pseudovirus neutralization IC50” value was above 10 µg/mL.

For B2, the “pseudovirus neutralization IC50” value was above 10 µg/mL.

As to B3, the “pseudovirus neutralization IC50” value is above 10 µg/mL.

In the case of B4, the “pseudovirus neutralization IC50” value is above 10 µg/mL.

With B6, the “pseudovirus neutralization IC50” value was above 10 µg/mL.

Regarding B7, the “pseudovirus neutralization IC50” value was above 10 µg/mL.

Another assay has as its target SARS-CoV-2 early D614G spike pseudovirus. Described as above. Here is the method: as §1
For the molecule B1, the “pseudovirus neutralization IC50” value came out at 0.0173 µg/mL.

With B2, the “pseudovirus neutralization IC50” value is 0.471 µg/mL.

Regarding B3, the “pseudovirus neutralization IC50” value came to 0.442 µg/mL.

As to B4, the “pseudovirus neutralization IC50” value worked out at 0.26 µg/mL.

In the case of B5, the “pseudovirus neutralization IC50” value turned out to be 0.0111 µg/mL.

For B6, the “pseudovirus neutralization IC50” value is 0.00373 µg/mL.

As for B7, the “pseudovirus neutralization IC50” value stood at 0.253 µg/mL.
